Results from patent US6794396B2, “Substituted pyridines useful for inhibiting cholesteryl ester transfer protein activity” (Pharmacia Corporation, priority 1998, dated 2004).

Biological target: T1, CETP (Homo sapiens, UniProt P11597)
T1 construct: made in house; host or cells: CHO cells (serum-free conditioned medium)
T1 sequence (P11597 18-493): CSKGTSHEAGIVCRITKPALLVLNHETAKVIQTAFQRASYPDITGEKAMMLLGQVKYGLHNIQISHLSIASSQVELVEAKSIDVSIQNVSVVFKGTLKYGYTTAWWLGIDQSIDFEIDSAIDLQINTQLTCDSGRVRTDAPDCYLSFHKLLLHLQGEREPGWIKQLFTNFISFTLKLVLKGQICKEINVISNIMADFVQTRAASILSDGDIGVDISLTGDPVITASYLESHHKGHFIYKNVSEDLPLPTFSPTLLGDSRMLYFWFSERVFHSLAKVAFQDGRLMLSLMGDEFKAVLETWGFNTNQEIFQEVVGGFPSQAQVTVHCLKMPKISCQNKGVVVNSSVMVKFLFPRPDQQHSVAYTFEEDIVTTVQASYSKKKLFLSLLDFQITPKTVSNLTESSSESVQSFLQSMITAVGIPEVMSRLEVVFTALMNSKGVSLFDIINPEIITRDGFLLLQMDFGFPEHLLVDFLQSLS
Test: CETP activity in vitro: transfer of [3H]CE from HDL donor to LDL acceptor particles
Assay type: biochemical
Settings: IC50(μm), 50% inhibition of [3H]CE transfer from HDL to LDL, 2 hours at 37° C.
Procedure: The ability of compounds to inhibit CETP were assessed using an in vitro assay that measured the rate of transfer of radiolabeled cholesteryl ester ([^3H]CE) from HDL donor particles to LDL acceptor particles. Details of the assay are provided by Glenn et al. (“Quantification of Cholesteryl Ester Transfer Protein (CETP): A) CETP Activity and B) Immunochemical Assay of CETP Protein,” Meth. Enzymol., Glenn and Melton (Meth. Enzymol., 263, 339-351 (1996), which is incorporated herein by reference). CETP was obtained from the serum-free conditioned medium of CHO cells transfected with a cDNA for CETP (Wang, S. et al. J. Biol Chem. 267, 17487-17490 (1992), which is incorporated herein by reference).
To measure CETP activity, [^3H]CE-labeled HDL, LDL, CETP and assay buffer (50 mM tris(hydroxymethyl)amino-methane, pH 7.4; 150 mM sodium chloride; 2 mM ethylenediamine-tetraacetic acid; 1% bovine serum albumin) were incubated in a volume of 200 μl, for 2 hours at 37° C. in 96 well plates. LDL was differentially precipitated by the addition of 50 μl of 1% (w/v) dextran sulfate/0.5 M magnesium chloride, mixed by vortex, and incubated at room temperature for 10 minutes The solution (200μl) was transferred to a filter plate (Millipore). After filtration, the radioactivity present in the precipitated LDL was measured by liquid scintillation counting.
This value was defined as the IC50.

## COC(=O)c1c(C(F)F)nc(C(F)(F)F)c(SCCCl)c1CC(C)C [Compound 44, Methyl 5-(Chloroethylthio)-2-(difluoromethyl)-4-(2-methylpropyl)-6-(trifluoromethyl)-3-pyridinecarboxylate]
  IC50: 50 µM
